The values that follow are results of earlier work, collected in publication PMC10974348.

In the data set the target is capsid protein (Human immunodeficiency virus 1) (UniProt O93182).

On to cyclophilin A (from UniProt P62937), for which the Kd was 16 µM.
